Laboratory results published in PMC6095690, “Coalescing beneficial host and deleterious antiparasitic actions as an antischistosomal strategy” (eLife, 2018).

System: forskolin evoked cAMP production in HEK293 cells lacking Sm.5HTRL
Assay: counter-screen of antagonist hits: forskolin evoked cAMP production in parental reporter line
Format: cell-based
Conditions: antagonist hit counter screen, forskolin 25 µM

Compound	(-) Sm.5HTR Forskolin response (% of DMSO)
CC(=O)OC1C(=O)OCC23CCC4(C)OC4C2OC2CC(OC(=O)/C=C/C=C/C(=O)OCCC1C)C3(C)C21CO1 (centres unmarked)	1.107 % of DMSO
C[C@@H]1CCOC(=O)/C=C/C=C\C(=O)O[C@@H]2C[C@H]3O[C@@H]4[C@@H]5OC5(C)CCC4(COC(=O)[C@H]1O)[C@]2(C)[C@@]31CO1 (some centres unmarked)	1.137 % of DMSO
